Measured values from several laboratories, pooled; numbers as filed in NIAID ChemDB.

All rows: enzyme or target tests; agent: HIV-1; target: Reverse transcriptase

Inhibition is in % at the dose shown (toxicity tests: loss of growth or viability). An empty or dashed field is not shown. ICn is the concentration giving n% inhibition. Fold resistance has wild type as its base. Neighbouring rows are from separate reports.

compound | strain or isolate | changes | read by | read-out | dose | result
O=C1CSC(c2ccnc3ccccc23)N1c1ccccn1 | - | - | ELISA | inhibition | 10 µg/mL | 19.2%
CC1(C)[C@@H](O[C@H]2O[C@H](C(=O)O)[C@@H](O)[C@H](O)[C@H]2O[C@@H]2O[C@H](C(=O)O)[C@@H](O)[C@H](O)[C@H]2O)CC[C@]2(C)[C@H]3C(=O)C=C4[C@@H]5C[C@@](C)(C(=O)O)CC[C@]5(C)CC[C@@]4(C)[C@]3(C)CC[C@@H]12 | - | - | - | inhibition | 500 µg/mL | 98.3%
CN(C)c1ccc(C2SCC(=O)N2c2ccccn2)cc1 | - | - | ELISA | inhibition | 10 µg/mL | 44.9%
Cc1cn([C@H]2CC[C@@H](COP(=O)(O)OP(=O)(O)OP(=O)(O)O)O2)c(=O)[nH]c1=O | - | RT-N137A | nucleotide incorporation / radiometric | IC50 | - | 0.1 µM
O=c1cnc2ccccc2n1CCNC(=S)Nc1ccc(Br)cn1 | - | RT-V106A | nucleotide incorporation | Ki | - | 0.62 µM
CCN1c2ncc(CCO)cc2C(=O)N(C)c2ccc(Cl)nc21 | - | RT-Y181C | nucleotide incorporation / radiometric | IC50 | - | <1 µM
CC1SC(c2c(F)cccc2F)N(Cc2ccco2)C1=O | - | - | ELISA | inhibition | 10 µg/mL | 0%
C1=Cc2cccnc2N(C2CC2)c2ncccc21 | - | - | nucleotide incorporation | inhibition | 1 µM | 98%
O=C1c2ccncc2C(=O)N1CCNC(=S)Nc1ccc(Br)cn1 | - | RT-V106A | nucleotide incorporation | Ki | - | 7.2 µM
CCN1c2ncc(CSc3ncccn3)cc2C(=O)N(C)c2ccc(Cl)nc21 | WT | - | nucleotide incorporation / radiometric | IC50 | - | <1 µM
Nc1ncnc2c1ncn2CCOCP(=O)(O)OP(=O)(O)OP(=O)(O)O | - | RT-Q151M | nucleotide incorporation / radiometric | Ki | - | 0.22 µM
CCN1c2ncc(COc3cc[n+]([O-])cc3)cc2C(=O)N(C)c2cccnc21 | WT | - | nucleotide incorporation / radiometric | IC50 | - | <1 µM
Nc1ccn([C@H]2CC[C@@H](COP(=O)(O)OP(=O)(O)OP(=O)(O)O)O2)c(=O)n1 | - | RT-WT | RT activity | Ki | - | 0.2 µM
Cc1ccc2c(c1)n(CCNC(=S)Nc1ccc(Br)cn1)c(=O)c1cccn12 | - | RT-Y181I | nucleotide incorporation | fold resistance | - | 35
CCN1c2ncc(COc3ccc(C(=O)OC)cc3)cc2C(=O)N(C)c2ccc(Cl)nc21 | WT | - | nucleotide incorporation / radiometric | IC50 | - | <1 µM
Nc1ncnc2c1ncn2[C@@H]1O[C@H](COP(=O)(O)OP(=O)(O)OP(=O)(O)O)C[C@@H]1F | - | RT-M184V | nucleotide incorporation / radiometric | Ki | - | 2.5 µM
O=P(O)(O)OP(=O)(O)O | - | RT-Q161L H208Y | - | Ki | - | 3500 µM
CCN1c2ncc(COc3cc[n+]([O-])cc3)cc2C(=O)N(C)c2ccc(Cl)nc21 | WT | - | nucleotide incorporation / radiometric | IC50 | - | <1 µM
Cc1cc(S(N)(=O)=O)ccc1NC(=O)COc1ccc(Cl)cc1C(=O)c1cc(Cl)cc(C#N)c1 | - | RT-V106A | fluorescence | IC50 | - | 0.004 µM
O=C(O)CP(=O)(O)O | - | - | ELISA | inhibition | 700 µM | 9%
COc1ccc(/C=C/NC(=O)Nc2ccc(Cl)cn2)cc1OC | - | RT-K103N | nucleotide incorporation | Ki | - | >20 µM
CCN1c2ncc(OCc3ccccc3)cc2C(=O)N(C)c2ccc(Cl)nc21 | WT | - | nucleotide incorporation / radiometric | IC50 | - | >1 µM
CCc1c(Sc2ccccn2)n(COCc2ccccc2)c(=O)[nH]c1=O | - | RT-P236L | - | inhibition | 50 µM | 90%
O=c1c2cccn2c2ccccc2n1CCNC(=S)Nc1ccc(Br)cn1 | - | - | nucleotide incorporation | Ki | - | 0.058 µM
CC(=O)c1ccc(C)cc1NC(C(N)=O)c1c(Cl)cccc1Cl | - | - | - | inhibition | 20 µg/mL | 95.2%
CCN1c2ncc(COc3cccc(C(=O)O)c3)cc2C(=O)N(C)c2ccc(Cl)nc21 | WT | - | nucleotide incorporation / radiometric | IC50 | - | <1 µM
COc1cc(OC)c(C2SCC(=O)N2c2cccc(C)n2)c(OC)c1 | - | - | ELISA | inhibition | 10 µg/mL | 48.75%
Cc1c(Sc2ccccc2)n(COCCO)c(=O)[nH]c1=O | - | RT-Y181I | - | fold resistance | - | 8
Cc1cn([C@H]2CC[C@@H](COP(=O)(O)OP(=O)(O)OP(=O)(O)O)O2)c(=O)[nH]c1=O | - | - | ELISA | inhibition | 10 µM | 99%
CCN1c2ncc(O)cc2C(=O)N(C)c2ccc(Cl)nc21 | WT | - | nucleotide incorporation / radiometric | IC50 | - | >1 µM
CC1=C(/C=C/C(C)=C/C=C/C(C)=C/C(=O)O)C(C)(C)CCC1 | - | - | ELISA | inhibition | 200 µM | 50%
Nc1ccn([C@@H]2CS[C@H](COP(=O)(O)OP(=O)(O)OP(=O)(O)O)O2)c(=O)n1 | - | RT-T215Y | nucleotide incorporation / radiometric | Ki | - | 3.4 µM
Cc1nc(N2C(=O)CSC2c2c(Cl)cccc2Cl)ccc1Br | - | - | ELISA | inhibition | 10 µg/mL | 32.2%
O=C(O)Cn1cnc2c(=O)[nH]c(NC(=O)OCc3ccccc3)nc21 | NNRTI-resistant | Y188L | nucleotide incorporation / radiometric | Ki | - | 25.7 µM
Cc1cn([C@H]2C=C[C@@H](COP(=O)(O)OP(=O)(O)OP(=O)(O)O)O2)c(=O)[nH]c1=O | - | RT-T215Y | nucleotide incorporation / radiometric | fold resistance | - | 2.4

4 of the rows above, restated:

compound	strain or isolate	changes	read by	read-out	dose	result
Cc1cc(S(N)(=O)=O)ccc1NC(=O)COc1ccc(Cl)cc1C(=O)c1cc(Cl)cc(C#N)c1	-	RT-V106A	fluorescence	IC50	-	0.004 µM
COc1ccc(/C=C/NC(=O)Nc2ccc(Cl)cn2)cc1OC	-	RT-K103N	nucleotide incorporation	Ki	-	>20 µM
CCN1c2ncc(OCc3ccccc3)cc2C(=O)N(C)c2ccc(Cl)nc21	WT	-	nucleotide incorporation / radiometric	IC50	-	>1 µM
O=c1cnc2ccccc2n1CCNC(=S)Nc1ccc(Br)cn1	-	RT-V106A	nucleotide incorporation	Ki	-	0.62 µM